Target: Cb-cParM, chromosome-encoded ParM of Clostridium botulinum Bf (Clostridium botulinum Bf)
Assay: co-sedimentation

Cb-cParM, chromosome-encoded ParM of Clostridium botulinum Bf (natural protein)
critical concentration (with ADP): 1.81 µM | critical concentration (with ATP): 0.31 µM | critical concentration (with GDP): 1.92 µM | critical concentration (with GTP): 0.61 µM

Source: PMC12270681 (The Journal of Biological Chemistry, 2025)
